Pooled drug test results. Numbers come from NIAID ChemDB, via PubChem.

All rows: tests in culture; species: HIV-1; cell line: MT-4; endpoint: EC50

Conditions beyond the fields shown may differ between rows.

smiles,strain or isolate,mutations,read by,value
CC(C)c1c(C(=O)c2cccc3ccccc23)n(C/C=C/c2ccccc2)c(=O)n(C/C=C/c2ccccc2)c1=O,IIIB,,cytopathic effect / MTT,>129 µM
Cc1cn([C@H]2C[C@H](N=[N+]=[N-])[C@@H](CO)O2)c(=O)[nH]c1=O,NL4-3,,MTT,0.0007 µM
CCc1c(Sc2cc(C)cc(C)c2)n(CCCCC(=O)NCCCCCCCCCCNC(=O)CCc2cn([C@H]3C[C@H](N=[N+]=[N-])[C@@H](CO)O3)c(=O)[nH]c2=O)c(=O)[nH]c1=O,IIIB,,RT activity,>10 µM
Cc1cn([C@H]2C[C@H](N=[N+]=[N-])[C@@H](CO)O2)c(=O)[nH]c1=O,NL4-3,,p24 / ELISA,0.0006 µg/mL
O=c1ccn([C@@H]2CC(CO)(CO)CS2)c(=O)[nH]1,,,cytopathic effect,>100 µg/mL
CCCNc1nc(N)nc2c1ncn2[C@H]1C[C@H](N=[N+]=[N-])[C@@H](CO)O1,IIIB,,cytopathic effect,12 µM
COC(=O)c1[nH]c2ccccc2c1Sc1ccccc1,IIIB,,p24 / ELISA,>3 µM
CN1CCN=C(c2ccccc2)c2cc(Cl)ccc21,LAV,,,>100 µg/mL
O=C(N[C@H](C(=O)N[C@@H](Cc1ccc(OCc2ccccc2)cc1)C(=O)C(F)(F)C(=O)NCc1ccccc1)C1CCCC1)OCc1ccccc1,RF,,cytopathic effect / MTT,3 µM
C[C@@H](Cn1cnc2c(N)ncnc21)OCP(=O)(O)O,IIIB,,cytopathic effect / trypan blue,270 µM
CC(C)CN(C[C@@H](O)[C@H](Cc1ccccc1)NC(=O)O[C@H]1CCOC1)S(=O)(=O)c1ccc(N)cc1,HXB2,PR-M46I I47V I50V,,2.135 µM
Cc1nc(N)nc2c1ncn2[C@H]1C[C@H](N=[N+]=[N-])[C@@H](CO)O1,IIIB,,cytopathic effect,>200 µM
CN1CCC[C@@H]1CCO[C@](C)(c1ccccc1)c1ccc(Cl)cc1,LAV,,,>1 µg/mL
[N-]=[N+]=N[C@H]1C[C@H](n2cnc3c(NC4CCC4)nc(N)nc32)O[C@@H]1CO,IIIB,,cytopathic effect,16 µM
Cc1cn([C@H]2C[C@H](N=[N+]=[N-])[C@@H](COP(=O)(O)OC[C@@H]3O[C@H](n4ccc(N)nc4=O)CS3)O2)c(=O)[nH]c1=O,IIIB,,RT activity,0.075 µM
Nc1ccc(-c2nc3ccccc3c(=O)[nH]2)cc1,,,MTT,>238.1 µM
O=[N+]([O-])c1cncn1CCOC(c1ccccc1)c1ccccc1,IIIB,,cytopathic effect / MTT,100 µM
NC(=O)c1[nH]c2ccc(Cl)cc2c1S(=O)(=O)c1ccccc1,IIIB,,p24 / ELISA,<0.003 µM
CC(C)Oc1nc(N)nc2c1ncn2[C@H]1C[C@H](N=[N+]=[N-])[C@@H](CO)O1,IIIB,,cytopathic effect,22 µM
CNC(=O)c1[nH]c2ccccc2c1Sc1ccccc1,IIIB,,p24 / ELISA,<0.8 µM
COC(=O)[C@H](CO)NC(=O)CNC(=O)COc1ccc2ccccc2c1,IIIB,,cytopathic effect / MTT,>58 µg/mL
CC(C)[C@H](NC(=O)N(C)Cc1ccccn1)C(=O)N[C@@H](Cc1ccccc1)[C@H](O)[C@H](O)[C@H](Cc1ccccc1)NC(=O)[C@@H](NC(=O)N(C)Cc1ccccn1)C(C)C,IIIB,,cytopathic effect / MTT,0.2 µM
COC(=O)[C@H](CC(C)C)NC(=O)CNC(=O)COc1ccc2ccccc2c1,IIIB,,cytopathic effect / MTT,>16 µg/mL
O=C1C=C2C=C[C@H]3C[C@]2(O1)[C@H]1CCCCN31,NL4-3,,MTT / absorbance,56.4 µM
CCOP(=O)(OCC)C(F)(F)C[C@@]1(O)CO[C@@H](n2cc(C)c(=O)[nH]c2=O)C1,,,MTT,>100 µM
O=c1[nH]c(=O)n([C@H]2C[C@H](F)[C@@H](CO)O2)cc1Cl,IIIB,,cytopathic effect,0.7 µM
Cc1ccnc2c1NC(=O)c1cccnc1N2C1CC1,,RT-K103N Y181C,cytopathic effect / MTT,>30 µM
CC(C)=CCN1Cc2cc(Cl)cc3[nH]c(=S)n(c23)C[C@@H]1C,,RT-L74V K101E,,<3 µM
C[C@](N)(Cc1ccc(O)c(O)c1)C(=O)O,LAV,,,>1 µg/mL
CNC(=O)[C@@H](NC(=O)[C@H](OCc1ccccc1)[C@H](O)[C@H](O)[C@@H](OCc1ccccc1)C(=O)N[C@H](C(=O)NC)C(C)C)C(C)C,,,cytopathic effect / XTT,>10 µM
C/C(=N\NC(=S)NNC(=S)c1ccc(Cl)cc1)C12CC3CC(CC(C3)C1)C2,IIIB,,,>10 µM
O=S(Cc1[nH]c2ccccc2c1Sc1ccccc1)c1ccccc1,IIIB,,p24 / ELISA,<0.4 µM
O=C1C=C2[C@@H]3O[C@@H]3[C@@H]3C[C@@]2(O1)[C@H]1CCCN31,NL4-3,,MTT / absorbance,85.5 µM
COC(=O)[C@H](CCSC)NC(=O)[C@H](CO)NC(=O)COc1ccc2ccccc2c1,IIIB,,cytopathic effect / MTT,>49 µg/mL
CC(C)[C@H](NC(=O)N(C)Cc1ccccn1)C(=O)N[C@@H](Cc1ccccc1)[C@@H](O)[C@H](O)[C@H](Cc1ccccc1)NC(=O)[C@@H](NC(=O)N(C)Cc1ccccn1)C(C)C,IIIB,,cytopathic effect / MTT,1.54 µM
CCc1cn([C@H]2C[C@H](F)[C@@H](CO)O2)c(=O)[nH]c1=O,IIIB,,cytopathic effect,300 µM
CC(=O)CCCCn1c(=O)c2c(ncn2C)n(C)c1=O,LAV,,,>100 µg/mL
CCOCn1c(Sc2cc(C)cc(C)c2)c(CC)c(=O)[nH]c1=S,RF,,cytopathic effect / MTT,0.0026 µM
CN(CCO)c1ccc(-c2nc3ccccc3c(=O)[nH]2)cc1,,,MTT,>42.2 µM
Cc1cn([C@H]2CC[C@@H](CO)O2)c(=O)[nH]c1=O,IIIB,,cytopathic effect,6 µM
N[C@@H](CCC(=O)N[C@@H](CS)C(=O)NCC(=O)O)C(=O)O,LAV,,,>100 µg/mL
C[C@H](Cn1cnc2c(N)ncnc21)OCP(=O)(O)O,,RD 23-RTwt,cytopathic effect / MTT,0.84 µM
C#CCn1c(C(=O)c2cccc3ccccc23)c(C(C)C)c(=O)[nH]c1=O,IIIB,,cytopathic effect / MTT,≥1.21 µM
COC(=O)[C@H](CO[C@H]1O[C@H](C2COC(C)(C)O2)[C@@H]2OC(C)(C)O[C@H]12)NC(=O)[C@H](CCSC)NC(=O)COc1ccc2ccccc2c1,IIIB,,cytopathic effect / MTT,>75 µg/mL
[N-]=[N+]=N[C@H]1C[C@H](n2cnc3c(OCc4ccccc4)nc(N)nc32)O[C@@H]1CO,IIIB,,cytopathic effect,8 µM
C[C@H](Cn1cnc2c(N)ncnc21)OCP(=O)(O)O,IIIB,,cytopathic effect / trypan blue,5.9 µM
CC(C)NCC(O)COc1cccc2[nH]ccc12,LAV,,,>100 µg/mL
Cc1cn([C@H]2C[C@H](N=[N+]=[N-])[C@@H](CO)O2)c(=O)[nH]c1=O,IIIB,,RT activity,0.04 µM
CCOP(=O)(OCC)C(F)(F)C[C@@]1(O)CO[C@@H](n2ccc(N)nc2=O)C1,,,MTT,11.2 µM
CCc1c(C(=O)c2cccc3ccccc23)n(CC(=O)OC)c(=O)[nH]c1=O,IIIB,,cytopathic effect / MTT,1.12 µM
CCCC[NH+]1[C@@H]2C[C@H](OC(=O)[C@H](CO)c3ccccc3)CC[C@H]1[C@H]1O[C@H]12,LAV,,,>100 µg/mL
CCc1cn([C@H]2C[C@H](N=[N+]=[N-])[C@@H](CO)O2)c(=O)[nH]c1=O,IIIB,,cytopathic effect,64 µM
Cc1cn([C@H]2C[C@H](N=[N+]=[N-])[C@@H](CO)O2)c(=O)[nH]c1=O,IIIB,,cytopathic effect / MTT,0.0015 µM
CCn1nc(Cn2cc(C)c(=O)[nH]c2=O)nc1C,IIIB,,,>64 µg/mL
CCOC(=O)Cn1c(C(=O)c2cccc3ccccc23)c(C(C)C)c(=O)[nH]c1=O,IIIB,,cytopathic effect / MTT,1.42 µM
Nc1ccn([C@H]2CC[C@@H](CO)O2)c(=O)n1,IIIB,,cytopathic effect,0.3 µM
C[C@]12CCCN1[C@H]1C[C@@]23OC(=O)C=C3C[C@@H]1C1=C2C[C@H]3[C@H](O)C[C@]2(OC1=O)[C@H]1CCCN31,NL4-3,,MTT / absorbance,79.6 µM
O=c1ccn([C@H]2C[C@H](F)[C@@H](CO)O2)c(=O)[nH]1,IIIB,,cytopathic effect,0.04 µM
N#Cc1ccc(Nc2nccc(C(O)c3ccc4ccccc4c3)n2)cc1,IIIB,,MTT,1.277 µM
CCOP(=O)(OCC)C(F)(F)C[C@@]1(O)CO[C@@H](n2cnc3c(Cl)nc(N)nc32)C1,,,MTT,90 µM
Nc1ccc(-c2nc3cc(Cl)ccc3c(=O)[nH]2)cc1,,,MTT,>170 µM
COC(=O)[C@H](CCSC)NC(=O)CNC(=O)COc1ccc2ccccc2c1,IIIB,,cytopathic effect / MTT,>100 µg/mL
CCNC(=O)[C@@H](NC(=O)Cc1ccccc1)[C@@H]1N[C@@H](C(=O)NCCNC(=O)[C@@H]2N[C@@H]([C@H](NC(=O)Cc3ccccc3)C(=O)NCC)SC2(C)C)C(C)(C)S1,RF,,cytopathic effect,5.4 µM
CCOCn1c(Sc2cc(C)cc(C)c2)c(CC)c(=O)[nH]c1=O,RF,,cytopathic effect / MTT,0.0045 µM
CC(C)c1c(C(=O)c2cccc3ccccc23)n(C/C=C/c2ccccc2)c(=O)[nH]c1=O,IIIB,,cytopathic effect / MTT,0.14 µM
O=C(N[C@H]1c2ccccc2C[C@H]1O)[C@H](OCc1ccccc1)[C@H](O)[C@@H](O)[C@@H](OCc1ccccc1)C(=O)N[C@H]1c2ccccc2C[C@H]1O,,,,0.096 µM
Nc1ccn([C@H]2C[C@]3(CO2)CC(F)(F)P(=O)(O)O3)c(=O)n1,,,MTT,15.5 µM
[N-]=[N+]=N[C@H]1C[C@H](n2cnc3c(NCc4ccccc4)nc(N)nc32)O[C@@H]1CO,IIIB,,cytopathic effect,>200 µM
Nc1ccn([C@H]2CC[C@@H](CO)O2)c(=O)n1,,RD 23-RTwt,cytopathic effect / MTT,0.84 µM
CCc1c(C(=O)c2cccc3ccccc23)n(C/C=C/C(=O)OC)c(=O)[nH]c1=O,IIIB,,cytopathic effect / MTT,0.92 µM
N#Cc1ccc(Nc2nccc(C(O)c3cccc4ccccc34)n2)cc1,IIIB,,MTT,0.071 µM
CCOc1nc(N)nc2c1ncn2[C@H]1C[C@H](N=[N+]=[N-])[C@@H](CO)O1,IIIB,,cytopathic effect,23 µM
COC(=O)[C@H](C)NC(=O)CNC(=O)COc1ccc2ccccc2c1,IIIB,,cytopathic effect / MTT,>59 µg/mL
CCOP(=O)(OCC)C(F)(F)C[C@@]1(O)CO[C@@H](n2cnc3c(N)ncnc32)C1,,,MTT,67.5 µM
O=c1ccn([C@H]2CC[C@@H](CO)O2)c(=O)[nH]1,IIIB,,cytopathic effect,210 µM
Cn1c(=O)c2c(ncn2C)n(C)c1=O,LAV,,,>100 µg/mL
O=C(NC1c2ccccc2C[C@H]1O)[C@H](CCc1ccccc1)[C@@H](O)[C@H](O)[C@@H](CCc1ccccc1)C(=O)N[C@H]1c2ccccc2C[C@H]1O,,,cytopathic effect / XTT,0.093 µM
CN[C@@H](CS)C(=O)O,LAV,,,>100 µg/mL
Cc1cn([C@H]2C[C@H](N=[N+]=[N-])[C@@H](CO)O2)c(=O)[nH]c1=O,IIIB,,cytopathic effect / MTT,0.02 µM
CCOP(=O)(OCC)C(F)(F)C[C@@]1(O)CO[C@@H](n2ccc(=O)[nH]c2=O)C1,,,MTT,>100 µM

A second listing of 12 rows from above:

| smiles | strain or isolate | mutations | read by | value |
|---|---|---|---|---|
| CCc1c(C(=O)c2cccc3ccccc23)n(C/C=C/C(=O)OC)c(=O)[nH]c1=O | IIIB |  | cytopathic effect / MTT | 0.92 µM |
| CCOCn1c(Sc2cc(C)cc(C)c2)c(CC)c(=O)[nH]c1=O | RF |  | cytopathic effect / MTT | 0.0045 µM |
| C[C@]12CCCN1[C@H]1C[C@@]23OC(=O)C=C3C[C@@H]1C1=C2C[C@H]3[C@H](O)C[C@]2(OC1=O)[C@H]1CCCN31 | NL4-3 |  | MTT / absorbance | 79.6 µM |
| C[C@@H](Cn1cnc2c(N)ncnc21)OCP(=O)(O)O | IIIB |  | cytopathic effect / trypan blue | 270 µM |
| CCOP(=O)(OCC)C(F)(F)C[C@@]1(O)CO[C@@H](n2ccc(N)nc2=O)C1 |  |  | MTT | 11.2 µM |
| Cn1c(=O)c2c(ncn2C)n(C)c1=O | LAV |  |  | >100 µg/mL |
| [N-]=[N+]=N[C@H]1C[C@H](n2cnc3c(NC4CCC4)nc(N)nc32)O[C@@H]1CO | IIIB |  | cytopathic effect | 16 µM |
| CC(C)NCC(O)COc1cccc2[nH]ccc12 | LAV |  |  | >100 µg/mL |
| Nc1ccc(-c2nc3ccccc3c(=O)[nH]2)cc1 |  |  | MTT | >238.1 µM |
| O=C1C=C2C=C[C@H]3C[C@]2(O1)[C@H]1CCCCN31 | NL4-3 |  | MTT / absorbance | 56.4 µM |
| Cc1cn([C@H]2CC[C@@H](CO)O2)c(=O)[nH]c1=O | IIIB |  | cytopathic effect | 6 µM |
| O=C1C=C2[C@@H]3O[C@@H]3[C@@H]3C[C@@]2(O1)[C@H]1CCCN31 | NL4-3 |  | MTT / absorbance | 85.5 µM |

ECn is the concentration giving n% inhibition of infection, replication or growth. Blank or dashed fields: not listed here.